Pooled drug test results. Numbers come from NIAID ChemDB, via PubChem.

All rows: whole-cell or culture tests; species: Vaccinia virus; measure: EC50

Conditions beyond the fields shown may differ between rows. An empty or dashed field is not shown. ECn: concentration that inhibits the pathogen or its effect by n%.

SMILES	cell line	strain	value
O=C(O)Cc1ccc(O)c(O)c1	E6SM	-	7 µg/mL
Nc1ncnc2c1ncn2C[C@@H](CO)OCP(=O)(O)O	-	-	2.3 µM
NC(=O)c1csc([C@@H]2O[C@H](CO)[C@@H](O)[C@H]2O)n1	VERO	Elstree	45 µg/mL
O=c1[nH]c(=O)n([C@H]2C[C@H](O)[C@@H](CO)O2)cc1/C=C/Br	VERO	-	>500 µM
CC(C)(C)NC(=O)[C@@H]1C[C@@H]2CCCC[C@@H]2CN1C[C@@H](O)[C@H](Cc1ccccc1)NC(=O)[C@H](CC(N)=O)NC(=O)c1ccc2ccccc2n1	HFF	-	>300 µM
Nc1nccc2c1ncn2[C@@H]1C=C(CO)[C@@H](O)[C@H]1O	PRK	-	0.07 µg/mL
C[C@@H]1CC[C@H]2[C@@H](C)C(=O)O[C@@H]3OC4(C)CC[C@@H]1[C@]32OO4	E6SM	-	240 µg/mL
Nc1ncnc2c1c(Br)cn2[C@@H]1O[C@H](CO)[C@@H](O)[C@H]1O	PRK	-	0.02 µg/mL
COc1c(C)c2c(c(O)c1C/C=C(\C)CCC(=O)O)C(=O)OC2	VERO 76	-	2.1 µM
O=C(O)c1cc(O)c(O)c(O)c1	E6SM	-	2 µg/mL
CCCCCCCCCCCCCCCCCCOCCOP(=O)(O)CO[C@H](CO)Cn1ccc(N)nc1=O	HFF	NYC	0.1 µM
C[C@H](Cn1cnc2c(N)ncnc21)OCP(=O)(O)O	-	-	>350 µM
CCCCCCCCCCCCCCCCOCCCOP1(=O)CO[C@@H](Cn2ccc(N)nc2=O)CO1	HFF	Elstree	3.8 µM
Nc1ncnc2c1ncn2C[C@H](O)CO	PRK	-	20 µg/mL
Nc1ncnc2c1ncn2C[C@@H](CO)OCP(=O)(O)O	VERO 76	Copenhagen strain wild type	3.4 µM
Nc1nccc2c1ncn2[C@@H]1O[C@H](CO)[C@@H](O)[C@H]1O	PRK	-	7 µg/mL
NC(=O)c1ncn([C@@H]2O[C@H](CO)[C@@H](O)[C@H]2O)n1	-	-	<50 µg/mL
O=c1[nH]cnc2c1ncn2CC(CO)OCP(=O)(O)O	Primary rabbit kidney cells	-	>400 µg/mL
Nc1ccn(C[C@H]2COP(=O)(O)CO2)c(=O)n1	HFF	NYC	10.3 µM
Cc1cccc2c1OP(=O)(OCCOCn1cnc3c(=O)[nH]c(N)nc31)OC2	VERO 76	-	>99 µg/mL
Nc1nc(N)c2ncn(C3C[C@H](O)[C@@H](O)C3)c2n1	ESM	-	150 µg/mL
Nc1ncnc2c1ncn2[C@@H]1C[C@H](CO)[C@@H](O)C1	PRK	-	>100 µg/mL
Nc1ncnc2c1ncn2CCOCP(=O)(O)O	-	-	555 µM
Nc1ncnc2c1ncn2C[C@@H](O)[C@H](O)C(=O)O	PRK	-	70 µg/mL
C=CSC[C@H]1O[C@@H](n2cnc3c(N)ncnc32)[C@H](O)[C@@H]1O	-	-	30 µM
CCCCCCCCCCCCCCCCCCOCCOP1(=O)CO[C@@H](Cn2ccc(N)nc2=O)CO1	HFF	Copenhagen	1.1 µM
Nc1ncnc2c1ncn2[C@@H]1OC(C#CI)[C@@H](O)[C@H]1O	E6SM	-	0.08 µM
Nc1ncnc2c1c(Br)cn2[C@@H]1O[C@H](CO)[C@@H](O)[C@H]1O	PRK/E6SM	-	>0.1 µg/mL
Nc1nc(N)c2ncn(CCOCP(=O)(O)O)c2n1	Primary rabbit kidney cells	-	20 µg/mL
Cc1c(CC(=O)O)ccc(O)c1O	E6SM	-	40 µg/mL
Nc1ccn(C[C@@H](CO)OCP(=O)(O)O)c(=O)n1	VERO 76	Copenhagen strain wild type	19 µM
Nc1ncnc2c1ncn2CCOCP(=O)(O)O	Primary rabbit kidney cells	-	150 µg/mL
CCCCCCCCCCCCCCCCOCCCOP(=O)(O)CO[C@H](CO)Cn1ccc(N)nc1=O	HFF	WR	1.1 µM
Nc1nc2c(ncn2C[C@H]2CC[C@@H](CO)C2)c(=O)[nH]1	E6SM	-	>400 µg/mL
Nc1ncnc2c1c(Br)cn2[C@@H]1O[C@H](CO)[C@@H](O)[C@H]1O	PRK	-	0.07 µg/mL
Nc1ccn(C[C@H]2COP(=O)(O)CO2)c(=O)n1	VERO 76	-	61 µM
Cc1c(O)cccc1C(=O)N[C@@H](CSc1ccccc1)[C@H](O)CN1C[C@H]2CCCC[C@H]2C[C@H]1C(=O)NC(C)(C)C	HFF	-	>300 µM
Nc1nc(Cl)c2ncn(C[C@H]3CC[C@@H](CO)C3)c2n1	E6SM	-	>1 µg/mL
Nc1ncnc2c1ncn2C[C@H](O)CO	PRK	-	40 µg/mL
Nc1nc(N)c2nnn(C[C@H]3CC[C@@H](CO)C3)c2n1	E6SM	-	>400 µg/mL
NC(=O)c1ncn([C@H]2C=C[C@@H](CO)O2)n1	-	-	36 µg/mL
Cc1cn([C@H]2C[C@H](N=[N+]=[N-])[C@@H](CO)O2)c(=O)[nH]c1=O	HFF	-	>300 µM
Nc1nccc2c1ncn2[C@@H]1C[C@H](CO)[C@@H](O)[C@H]1O	E6SM	-	2 µg/mL
NC(=O)c1ccnc([C@@H]2O[C@H](CO)[C@@H](O)[C@H]2O)c1	PRK	-	>400 µg/mL
Cn1cc(NC(=O)c2cc(NC(=O)c3cc(NC=O)cn3C)cn2C)cc1C(=O)NCCC(=N)N	BSC-40	-	<50 µM
Nc1ccn(C[C@@H](CO)OCP(=O)(O)O)c(=O)n1	HFF	WR	45.8 µM
NC(=O)c1ncn([C@@H]2O[C@H](CO)[C@@H](O)[C@H]2O)n1	VERO 76	Copenhagen strain wild type	21 µM
Nc1ncnc2c1ncn2C1CC(CO)[C@@H](O)[C@H]1O	PRK	-	2 µg/mL
Nc1nc2c(ncn2COCCOP2(=O)OCc3ccccc3O2)c(=O)[nH]1	VERO 76	-	>99 µg/mL
Cc1cc(O)ccc1O	E6SM	-	40 µg/mL

7 of the rows above, restated:

SMILES	cell line	strain	value
Nc1nc(N)c2nnn(C[C@H]3CC[C@@H](CO)C3)c2n1	E6SM	-	>400 µg/mL
Nc1ncnc2c1ncn2CCOCP(=O)(O)O	-	-	555 µM
O=c1[nH]cnc2c1ncn2CC(CO)OCP(=O)(O)O	Primary rabbit kidney cells	-	>400 µg/mL
NC(=O)c1ncn([C@@H]2O[C@H](CO)[C@@H](O)[C@H]2O)n1	-	-	<50 µg/mL
Nc1ncnc2c1ncn2C[C@@H](CO)OCP(=O)(O)O	-	-	2.3 µM
Nc1ncnc2c1ncn2[C@@H]1C[C@H](CO)[C@@H](O)C1	PRK	-	>100 µg/mL
CCCCCCCCCCCCCCCCCCOCCOP1(=O)CO[C@@H](Cn2ccc(N)nc2=O)CO1	HFF	Copenhagen	1.1 µM